Assay results reported in publication PMC9743467 (Matter, 2022).

Tested on: SARS-CoV-2 PsV
Assay type: cell-based
Conditions: n = 3

ACE2: recombinant human angiotensin-converting enzyme 2, soluble, R&D Systems
inhibition of SARS-CoV-2 PsV infection: ~66%
